## Structure probing of HIV-1 leader RNA with DMS

Values reported by Ye et al. 2022 (doi:10.1038/s41594-022-00746-2).

Sequence of the HIV-1 NL4-3 5' RNA, positions 1 to 437, as numbered in the source:
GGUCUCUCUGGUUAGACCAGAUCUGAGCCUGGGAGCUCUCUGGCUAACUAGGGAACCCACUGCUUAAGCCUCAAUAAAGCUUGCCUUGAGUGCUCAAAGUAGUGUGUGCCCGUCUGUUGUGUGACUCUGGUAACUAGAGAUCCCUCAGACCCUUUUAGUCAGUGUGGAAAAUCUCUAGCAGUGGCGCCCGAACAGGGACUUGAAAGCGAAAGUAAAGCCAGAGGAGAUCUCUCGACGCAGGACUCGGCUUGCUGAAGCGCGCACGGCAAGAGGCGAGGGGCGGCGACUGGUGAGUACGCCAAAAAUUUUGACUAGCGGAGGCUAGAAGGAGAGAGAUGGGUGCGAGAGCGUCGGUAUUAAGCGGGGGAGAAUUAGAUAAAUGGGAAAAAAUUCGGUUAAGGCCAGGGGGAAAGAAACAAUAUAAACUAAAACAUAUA

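Randomly mutated transcripts starting with one, two or three G (1G, 2G, 3G), capped or uncapped, were folded for 30 min at 37 °C. Monomer and dimer bands were cut from native gels after folding in high salt (300 mM KCl, 5 mM MgCl2) or low salt (40 mM KCl, 0.1 mM MgCl2). Each band was probed in the gel with DMS (170 mM, 15 min, 37 °C), with ethanol as control, and sequenced.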

Values are winsor-normalised DMS reactivities of A and C; higher means more reactive, usually unpaired. One numbering serves 1G, 2G and 3G. A position is written with its base.

position,domain,2G uncapped low-salt dimer,2G uncapped low-salt monomer
A411,none,0.87,0.80
A412,none,0.51,0.46
A414,none,0.52,0.44
A415,none,0.25,0.21
A416,none,0.48,0.42
C417,none,0.91,0.78
A418,none,0.67,0.61
A419,none,0.51,0.44
A421,none,0.38,0.34
A423,none,0.44,0.40
A424,none,0.37,0.33
A425,none,0.57,0.49
C426,none,0.84,0.72
A428,none,0.11,0.10
A429,none,0.76,0.67
A430,none,0.55,0.53
A431,none,0.63,0.59
C432,none,0.95,0.85
A433,none,0.76,0.69
A435,none,0.52,0.48
A437,none,0.04,0.03

Extract of 2 entries:

* A421 -> 2G uncapped low-salt dimer 0.38; 2G uncapped low-salt monomer 0.34
* A428 -> 2G uncapped low-salt dimer 0.11; 2G uncapped low-salt monomer 0.10